Like-named read-outs stand apart in the source and are kept apart here.

The subject of data set [1] is RSV B WST. The data set can be described thus: CPE assay, RSV B Washington in HEp-2 cells (resazurin). (In general: The colour change of resazurin is a common sign of viable cells or microbes.)
Data set [2] has as its system RSV A2. As to the kind of experiment: RSV F protein cell-based ELISA in BEAS-2B cells, washout / nonwashout. Details: species or system respiratory syncytial virus. A general note: In an ELISA, binding on a coated surface is turned into a signal by an enzyme label.
Data set [3] relates to RSV A2. The data set can be described thus: CPE assay, RSV A2 in HEp-2 cells (resazurin). The note with it: read-out: RSV A2 IC90, HEp-2, n = 3, added with virus infection, ALS-8112 24 h prior.
Data set [4] concerns HEp-2 cells.

What is called IC50 is the point on the concentration scale where inhibition reaches its midpoint. Broadly, the IC90 is the concentration needed for an effect of 90%. The term CC50 denotes the concentration giving 50% cytotoxicity. A higher CC50 goes with lower toxicity to the cells. On to `O=C(NC1CC1)c1cc2c(s1)-c1ccccc1N(C(=O)c1ccc(NC(=O)c3cccnc3N3CCC4(CC3)COC4)cc1)CC2`, for which the IC50 was > 1580 nM in data set [1] (read-out: RSV B WST IC50, HEp-2, n = 3, added with virus infection, ALS-8112 24 h prior); 106 nM in data set [2] (read-out: IC50, F protein expressed on cell surfaces, 2 h exposure then 24-h washout before inoculation); 3.17 nM in data set [2] (read-out: IC50, F protein expressed on cell surfaces, nonwashout (sustained presence of drug)). Moreover, the concentration for an effect of 90% (IC90) is > 1580 nM in data set [1] (read-out: RSV B WST IC90, HEp-2, n = 3, added with virus infection, ALS-8112 24 h prior) and 60 nM in data set [3]. Also, in data set [4], the CC50 was > 15800 nM.
